This is an account of results in ChEMBL document CHEMBL5346973 (J Med Chem, 2023).

By UniProt entry, the sequences of proteins in these tests, tags left out. Where a name states a change or a piece, a line headed by the entry shows the natural chain unless it says otherwise.
UniProt Q05941, whole entry, looked up: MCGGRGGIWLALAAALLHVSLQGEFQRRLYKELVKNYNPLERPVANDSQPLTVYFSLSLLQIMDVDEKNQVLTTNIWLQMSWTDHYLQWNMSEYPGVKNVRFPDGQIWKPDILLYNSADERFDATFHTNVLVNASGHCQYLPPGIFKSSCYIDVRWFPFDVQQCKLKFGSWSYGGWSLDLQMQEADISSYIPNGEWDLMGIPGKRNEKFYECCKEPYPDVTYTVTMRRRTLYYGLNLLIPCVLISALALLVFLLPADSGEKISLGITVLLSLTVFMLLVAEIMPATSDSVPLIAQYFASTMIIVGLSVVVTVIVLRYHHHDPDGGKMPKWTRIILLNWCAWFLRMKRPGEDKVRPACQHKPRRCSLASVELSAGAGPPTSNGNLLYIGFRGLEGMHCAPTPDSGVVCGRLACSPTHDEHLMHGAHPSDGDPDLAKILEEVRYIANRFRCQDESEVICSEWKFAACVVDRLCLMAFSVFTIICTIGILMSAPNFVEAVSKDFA
UniProt P43144: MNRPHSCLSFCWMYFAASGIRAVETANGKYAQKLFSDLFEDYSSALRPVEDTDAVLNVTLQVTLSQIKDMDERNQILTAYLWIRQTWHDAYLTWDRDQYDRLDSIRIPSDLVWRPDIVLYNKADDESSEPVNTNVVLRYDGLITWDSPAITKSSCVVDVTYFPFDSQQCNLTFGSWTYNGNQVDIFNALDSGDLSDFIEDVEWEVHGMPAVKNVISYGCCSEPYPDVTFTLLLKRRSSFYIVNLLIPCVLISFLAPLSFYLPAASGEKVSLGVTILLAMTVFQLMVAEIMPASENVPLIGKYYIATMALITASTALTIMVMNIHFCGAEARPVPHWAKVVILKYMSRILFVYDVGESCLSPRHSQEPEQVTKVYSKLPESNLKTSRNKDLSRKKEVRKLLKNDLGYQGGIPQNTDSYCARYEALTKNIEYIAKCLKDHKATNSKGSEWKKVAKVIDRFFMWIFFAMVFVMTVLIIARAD
UniProt Q9JLB5: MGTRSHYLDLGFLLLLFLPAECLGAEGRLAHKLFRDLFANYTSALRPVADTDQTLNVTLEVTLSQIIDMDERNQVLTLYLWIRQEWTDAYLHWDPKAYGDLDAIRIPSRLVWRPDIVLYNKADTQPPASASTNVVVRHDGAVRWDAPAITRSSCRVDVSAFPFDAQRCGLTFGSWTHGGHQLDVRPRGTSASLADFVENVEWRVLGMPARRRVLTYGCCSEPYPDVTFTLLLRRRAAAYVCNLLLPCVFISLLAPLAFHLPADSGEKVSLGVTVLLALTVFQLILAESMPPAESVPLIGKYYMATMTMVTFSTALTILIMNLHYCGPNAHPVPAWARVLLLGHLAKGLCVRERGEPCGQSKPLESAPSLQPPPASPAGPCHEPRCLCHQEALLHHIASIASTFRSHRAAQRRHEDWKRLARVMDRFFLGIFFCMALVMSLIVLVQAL

Structures are written as SMILES.

The target of assay [1] is Neuronal acetylcholine receptor subunit alpha-7 (Rattus norvegicus) (UniProt Q05941). The assay is described as follows: Antagonist activity at rat alpha7 nACh receptor expressed in Xenopus oocyte assessed as inhibition of acetylcholine-induced response at -70 mV holding potential by measuring ratio of IC50 by voltage-clamp based electrophysiological assay relative to GeXIVA. The following applies: filed as antagonist.

Assay [2] deals with Nicotinic acetylcholine receptor alpha9/alpha10 (Rattus norvegicus) (UniProt P43144+Q9JLB5). The experiment in a line: Antagonist activity at rat alpha9alpha10 nACh receptor expressed in Xenopus oocyte assessed as inhibition of acetylcholine-induced response at -70 mV holding potential by measuring ratio of IC50 by voltage-clamp based electrophysiological assay relative to GeXIVA. The class given is cell-based. The following applies: filed as antagonist.

The species named for a further assay is Rattus norvegicus. The assay is described as follows: Selectivity ratio of IC50 for rat alpha7 nACh receptor to IC50 for rat alpha9alpha10 nACh receptor.

Regarding `CC[C@H](C)[C@@H]1NC(=O)[C@H](CCCNC(=N)N)NC(=O)[C@H](CCCNC(=N)N)NC(=O)[C@@H]2CSSC[C@H](NC(=O)[C@H](Cc3ccc(O)cc3)NC(=O)[C@H](CCCNC(=N)N)NC(=O)CNC(=O)[C@H](CO)NC(=O)[C@H](CO)NC(=O)[C@H](C)NC(=O)[C@@H](NC(=O)[C@@H](N)[C@@H](C)O)CSSC[C@@H](C(=O)N[C@H](C(=O)O)C(C)C)NC(=O)[C@H](C)NC(=O)[C@H](CC(=O)O)NC(=O)[C@H]([C@@H](C)O)NC1=O)C(=O)N[C@@H](CCCNC(=N)N)C(=O)N[C@@H](CO)C(=O)N1CCC[C@H]1C(=O)N[C@@H](Cc1ccc(O)cc1)C(=O)N[C@@H](CC(=O)O)C(=O)N[C@@H](CCCNC(=N)N)C(=O)N[C@@H](CCCNC(=N)N)C(=O)N[C@@H](CCCNC(=N)N)C(=O)N[C@@H](CCCNC(=N)N)C(=O)N[C@@H](Cc1ccc(O)cc1)C(=O)N2`, the figures for the Ratio IC50 (in assay [1]; in assay [2]; in the assay listed under Rattus norvegicus) were 3.2, 2.3 and 245, respectively.
On the same counts, the results for `CC[C@H](C)[C@@H]1NC(=O)[C@H](CCCNC(=N)N)NC(=O)[C@H](CCCNC(=N)N)NC(=O)[C@@H](NC(=O)[C@H](Cc2ccc(O)cc2)NC(=O)[C@H](CCCNC(=N)N)NC(=O)[C@H](CCCNC(=N)N)NC(=O)[C@H](CCCNC(=N)N)NC(=O)[C@H](CCCNC(=N)N)NC(=O)[C@H](CC(=O)O)NC(=O)[C@H](Cc2ccc(O)cc2)NC(=O)[C@@H]2CCCN2C(=O)[C@H](C)NC(=O)[C@H](CCCNC(=N)N)NC(=O)[C@@H]2CSSC[C@H](NC(=O)[C@@H](N)[C@@H](C)O)C(=O)N[C@@H](CCCNC(=N)N)C(=O)N[C@@H](CO)C(=O)N[C@@H](CO)C(=O)NCC(=O)N[C@@H](CCCNC(=N)N)C(=O)N[C@@H](Cc3ccc(O)cc3)C(=O)N2)CSSC[C@@H](C(=O)N[C@H](C(=O)O)C(C)C)NC(=O)[C@H](C)NC(=O)[C@H](CC(=O)O)NC(=O)[C@H]([C@@H](C)O)NC1=O` are 3.5, 2.2 and 86.5.
On to `CC[C@H](C)[C@@H]1NC(=O)[C@H](CCCNC(=N)N)NC(=O)[C@H](CCCNC(=N)N)NC(=O)[C@@H](NC(=O)[C@H](Cc2ccc(O)cc2)NC(=O)[C@H](CCCNC(=N)N)NC(=O)[C@H](CCCNC(=N)N)NC(=O)[C@H](CCCNC(=N)N)NC(=O)[C@H](CCCNC(=N)N)NC(=O)[C@H](CC(=O)O)NC(=O)[C@H](Cc2ccc(O)cc2)NC(=O)[C@@H]2CCCN2C(=O)[C@H](CO)NC(=O)[C@H](CCCNC(=N)N)NC(=O)[C@@H]2CSSC[C@H](NC(=O)[C@@H](N)[C@@H](C)O)C(=O)N[C@@H](CCCNC(=N)N)C(=O)N[C@@H](CO)C(=O)N[C@@H](CO)C(=O)NCC(=O)N[C@@H](CCCNC(=N)N)C(=O)N[C@@H](C)C(=O)N2)CSSC[C@@H](C(=O)N[C@H](C(=O)O)C(C)C)NC(=O)[C@H](C)NC(=O)[C@H](CC(=O)O)NC(=O)[C@H]([C@@H](C)O)NC1=O`, for which the Ratio IC50 was 2.6 in assay [1], 0.7 in assay [2] and 170 in the assay filed under Rattus norvegicus.
On the same counts, the results for `CC[C@H](C)[C@@H]1NC(=O)[C@H](CCCNC(=N)N)NC(=O)[C@H](CCCNC(=N)N)NC(=O)[C@@H]2CSSC[C@H](NC(=O)[C@H](Cc3ccc(O)cc3)NC(=O)[C@H](CCCNC(=N)N)NC(=O)CNC(=O)[C@H](CO)NC(=O)[C@H](CO)NC(=O)[C@H](CCCNC(=N)N)NC(=O)[C@@H](NC(=O)[C@@H](N)[C@@H](C)O)CSSC[C@@H](C(=O)N[C@H](C(=O)O)C(C)C)NC(=O)[C@H](C)NC(=O)[C@H](CC(=O)O)NC(=O)[C@H]([C@@H](C)O)NC1=O)C(=O)N[C@@H](CCCNC(=N)N)C(=O)N[C@@H](CO)C(=O)N1CCC[C@H]1C(=O)N[C@@H](C)C(=O)N[C@@H](CC(=O)O)C(=O)N[C@@H](CCCNC(=N)N)C(=O)N[C@@H](CCCNC(=N)N)C(=O)N[C@@H](CCCNC(=N)N)C(=O)N[C@@H](CCCNC(=N)N)C(=O)N[C@@H](Cc1ccc(O)cc1)C(=O)N2` are 1.6, 1.3 and 234.
